Tested on: Pectobacterium carotovorum subsp. carotovorum SCC1 (Pcc)
Conditions: Arabidopsis thaliana; for induced resistance against Pcc (disease severity, statistical significance vs water-treated control): 50 μl of 0.1% amino acid to roots, Pcc 7 days later, severity 24 h and 48 h after pathogen

| SMILES | induced resistance against Pcc (disease severity, statistical significance vs water-treated control) | persistence of disease resistance after Pcc pathogen treatment (0.1% amino acid, 48 hours after Pcc) |
| --- | --- | --- |
| CC[C@H](C)[C@H](N)C(=O)O [isoleucine] | induced the resistance against Pcc |  |
| CC(C)C[C@H](N)C(=O)O [leucine] | induced the resistance against Pcc |  |
| O=C(O)[C@@H]1CCCN1 [proline] | induced the resistance against Pcc |  |
| CC(C)[C@H](N)C(=O)O [valine] | induced the resistance against Pcc | persisted even after 48 hours |
